The assay has as its target Neuraminidase (Influenza A virus (strain A/Tern/Australia/G70C/1975 H11N9), UniProt P03472). Description: ASSAY_NAME: Neuraminidase Inhibition Assay DESCRIPTION: A standard fluorimetric assay was used to measure influenza virus neuraminidase activity. The substrate 2 -(4-methylumbelliferyl)-alpha-D-acetylneuraminic acid is cleaved by neuraminidase to yield a fluorescent product that can be quantified. Fluorescence was read using an Aminco-Bowman fluorescence spectrophotometer (excitation, 360 nm; emis. The note with it: pH 6.5.

Each structure is given as a SMILES string.

This is an account of results in BindingDB's records for 10450950.

The term IC50 denotes the concentration that gives 50% inhibition. A lower IC50 goes with inhibition by little substance. Take `CC(=O)Nc1c(N=C(N)N)cc(C(=O)O)cc1N=C(N)N`: the IC50 worked out at 250 µM.
